Measurements from publication PMC11612176 (The EMBO Journal, 2024).
For at least one entry, the source does not settle the construct or the ends of the probe. At least one verdict rests on a figure or table, not on a statement of the authors. Protein sequences can lack the tags named with them.

Target: T1, RadA WT (EMSA) (Streptococcus pneumoniae (R800 derivative)) (UniProt A0A237IXT5)
T1 sequence (looked up, limits assumed): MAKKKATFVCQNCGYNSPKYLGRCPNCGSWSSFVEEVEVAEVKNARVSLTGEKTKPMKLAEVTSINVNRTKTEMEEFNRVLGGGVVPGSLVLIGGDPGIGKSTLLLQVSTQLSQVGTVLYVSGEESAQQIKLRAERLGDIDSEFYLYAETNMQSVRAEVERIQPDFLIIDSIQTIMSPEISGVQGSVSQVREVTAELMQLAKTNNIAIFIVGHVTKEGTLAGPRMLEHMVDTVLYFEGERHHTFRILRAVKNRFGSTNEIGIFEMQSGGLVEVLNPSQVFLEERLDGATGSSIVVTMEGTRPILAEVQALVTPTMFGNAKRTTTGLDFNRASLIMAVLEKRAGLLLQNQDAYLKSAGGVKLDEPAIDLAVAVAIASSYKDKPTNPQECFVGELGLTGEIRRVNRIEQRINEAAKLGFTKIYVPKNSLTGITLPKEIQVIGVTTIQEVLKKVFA
Assay: EMSA
Settings: 10 mM Mg acetate, 100-900 nM protein, 10 nM DNA, EMSA: 50 mM Tris pH 7.5, 100 mM NaCl (printed as 100 M), 1 mM DTT, 0.1 mg/mL BSA, 6% glycerol, room temperature 15-20 min, recombinant protein, protein details: Strep-tag II-GFP removed by TEV

Sequence | binding result (label: 3'-Cy3 on strand 1) | binding result (label: 3'-Cy3, single-stranded DNA)
AATCATGGTCATAGCTGTTTCCTGTGTGAATAGCAATGTAATCGTCTATGACGTTAAACCATCGATAGCAGCACCGTAATCAGTAGCGACAGAATCAAGT (double strand) [Ovio9/Olea41 dsDNA 100 bp] | binds | 
AATCATGGTCATAGCTGTTTCCTGTGTGAATAGCAATGTAATCGTCTATGACGTTAAACCATCGATAGCAGCACCGTAATCAGTAGCGACAGAATCAAGT [Ovio9 ssDNA 100 nt] |  | binds
